In general, IC50 refers to the concentration that inhibits the measured activity by half. What is called CC50 is the concentration giving 50% cytotoxicity.

One compound from paper PMC11680393 (Viruses, 2024) can be followed below.

The test system of data set [1] is RSV A2. Put plainly: CPE assay, RSV A2 in HEp-2 cells (resazurin). Type of data set: cell-based, respiratory syncytial virus. The conditions noted are these: read-out: RSV A IC50, RSV A2 0.2 MOI, 5 days.
Data set [2] has as its system RSV A2. Put plainly: RSV F-protein cell-based ELISA on RSV A2-infected BEAS-2B cells. Set-up: species or system respiratory syncytial virus. As to conditions: read-out: F-Protein [BEAS2B] IC50; RSV A2 MOI 0.01, day 3 post-infection, compound applied just after infection, no washout. (In general: ELISA stands for enzyme-linked immunosorbent assay.)
The next data set concerns RSV B Washington (WST). In words: CPE assay, RSV B Washington (WST) in HEp-2 cells (resazurin). Format: cell-based, respiratory syncytial virus. The conditions noted are these: read-out: RSV B IC50, RSVB WST 0.2 MOI, 6 days.
The test system of the next data set is HEp-2 cells. In words: Cell viability in HEp-2 cells (resazurin). As to conditions: read-out: Cytotoxicity CC50, 5 or 6 days. Type of data set: cell-based, Human. For orientation: Resazurin is reduced to fluorescent resorufin, in cell work by metabolically active cells.

Consider `O=C(NC1CC1)c1cc2c(s1)-c1ccccc1N(C(=O)c1ccc(NC(=O)c3cccnc3N3CCC4(CC3)COC4)cc1)CC2`, for which the concentration for half-maximal inhibition (IC50) was 26.4 nM in the data set on RSV A2 [1], 3.2 nM in the data set on RSV A2 [2] and > 1580 nM in the data set on RSV B Washington (WST). For the same compound, in the data set with HEp-2 cells, the CC50 was > 15800 nM.
